A mixed list of measured activities; the numbers were collected in NIAID ChemDB.

Common to all: growth or infection tests; species: HIV-1

ECn is the concentration giving n% inhibition of infection, replication or growth. Lines come from different laboratories, so protocols vary. An empty or dashed field is not shown.

SMILES,cells,strain or isolate,setting,method,measure,mutations,value
N#C[C@]1(CO)O[C@@H](n2cnc3c(N)ncnc32)C[C@@H]1O,MAGI,3TC-resistant (RT M184V),,β-galactosidase,EC50,RT-M184V,2.28 µM
Cc1occc1C(=S)Nc1ccc(Cl)c(/C=N/OC(C)(C)C)c1,CEM + CEM-SS,3TC-RS (RT-M184I),,cytopathic effect / XTT,EC50,RT-M184I,0.2 µM
CC(C)(C)NC(=O)[C@@H]1CN(Cc2c[nH]c3ccccc23)CCN1C[C@@H](O)C[C@@H](Cc1ccccc1)C(=O)N[C@H]1c2ccccc2C[C@H]1O,MT-4,IIIB,,p24,EC50,,<0.05 µM
CCn1nc(Cc2ccc(S(C)(=O)=O)cc2)cc1C1CCN(C[C@H]2CN([C@@H](C(=O)O)C3CCCCC3)C[C@@H]2c2cccc(F)c2)CC1,HeLa,BaL,,β-galactosidase,EC50,,<0.0004 µM
Cc1cccc(C)c1OCC(=O)N[C@@H](Cc1ccccc1)[C@@H](O)C[C@H](Cc1ccccc1)NC(=O)[C@H](C(C)C)N1CCCNC1=O,MT-4,IIIB,,cytopathic effect / MTT,EC50,,0.033 µM
C[C@]1(/C=C/P(=O)(O)O)CO[C@@H](n2cnc3c(N)ncnc32)C1,PBMC,LAI,,,EC50,,50.6 µM
COc1ccc2c(c1)nc1n2C(c2c(F)cccc2Cl)SC1,MT-4,IIIB,,cytopathic effect / MTT,EC50,,>1.8 µM
CC(C)(C)NC(=O)[C@@H]1CN(Cc2cc3ccncc3o2)CCN1C[C@@H](O)C[C@@H](Cc1ccccc1)C(=O)N[C@H]1c2ccccc2C[C@H]1O,MT-4,IIIB,,p24,EC50,,<0.0125 µM
COCCNC(=O)[C@@H](NC(=O)[C@H](Cc1ccc(OC)c(OC)c1OC)C[C@H](O)[C@H](Cc1ccccc1)NC(=O)OC(C)(C)C)C(C)C,PBL,LAI,,RT activity,EC50,,0.0177 µM
CC(C)c1nc(CN(C)C(=O)N[C@H](C(=O)N[C@@H](Cc2ccccc2)C[C@H](O)[C@H](Cc2ccccc2)NC(=O)OCc2cncs2)C(C)C)cs1,MT-4,NL4-3,,p24,EC90,PR-D30N A71V,0.01 µM
CC(C)(C)NC(=O)[C@@H]1CN(Cc2cccnc2)CCN1C[C@@H](O)C[C@@H](Cc1ccccc1)C(=O)N[C@H]1c2ccccc2C[C@H]1O,MT-4,IIIB,,cytopathic effect / MTT,EC50,,0.046 µM
COc1ccc2nc3n(c2c1)C(c1c(F)cccc1Cl)SC3,MT-4,IIIB,,cytopathic effect / MTT,EC50,,>373 µM
CC(C)(C)NC(=O)[C@@H]1CN(Cc2ccc3occc3c2)CCN1C[C@@H](O)C[C@@H](Cc1ccccc1)C(=O)N[C@H]1c2ccccc2C[C@H]1O,MT-4,IIIB,,p24,EC50,,<0.1 µM
CCn1nc(Cc2ccc(O)cc2)cc1C1CCN(C[C@H]2CN([C@@H](C(=O)O)C3CCCCC3)C[C@@H]2c2cccc(F)c2)CC1,HeLa,BaL,,β-galactosidase,EC50,,<0.011 µM
O=C(O)P(=O)(O)O,MT-2,LAI,,cytopathic effect / MTT,EC50,,70.6 µM
CCn1nc(Cc2ccc(OC(F)F)cc2)cc1C1CCN(C[C@H]2CN([C@@H](C(=O)O)C(C)(C)C)C[C@@H]2c2cccc(F)c2)CC1,HeLa,BaL,50% human serum,β-galactosidase,EC90,,0.011 µM
Cc1cn([C@@H]2O[C@H](CO[Si](C)(C)C(C)(C)C)[C@@]3(OS(=O)(=O)C=C3N)[C@H]2O[Si](C)(C)C(C)(C)C)c(=O)[nH]c1=O,CEM + CEM-SS,UC10-resistant (RT Y181C K101E),,cytopathic effect / XTT,EC50,RT-Y181C K101E,>10 µM
O=C(c1ccccc1)c1ccc2c(c1)nc1n2C(c2c(F)cccc2F)SC1,MT-4,IIIB,,cytopathic effect / MTT,EC50,,>26.7 µM
O=S(=O)(c1ccccc1)c1ccccc1,CEM + CEM-SS,UC781-R (RT-Y181C),,cytopathic effect / XTT,EC50,RT-Y181C,>114 µM
CCC[C@@]1(CCc2ccccc2)CC(O)=C([C@H](CC)c2cccc(NS(=O)(=O)c3ccc(C(F)(F)F)cn3)c2)C(=O)O1,MT-4,IIIB,,cytopathic effect / MTT,EC50,,0.376 µM
C/C=C/CSc1cc(NC(=S)c2ccsc2C)ccc1Cl,CEM + CEM-SS,Isolate NL4-3,,cytopathic effect / XTT,EC50,,0.05 µM
O=c1[nH]cnc2c1ncn2[C@H]1CC[C@@H](CO)O1,PBMC,Recombinant,,p24,EC50,RT-V75I F77L Q151M,2 µM
Fc1cccc(F)c1C1SCc2nc3ccccc3n21,CEM,IIIB,,cytopathic effect / MTT,EC50,,1.39 µM
CCCCOc1ccc(Cc2cc(C3CCN(C[C@H]4CN([C@@H](C(=O)O)C(C)C)C[C@@H]4c4cccc(F)c4)CC3)n(CC)n2)cc1,HeLa,BaL,50% human serum,β-galactosidase,EC50,,<0.3 µM
Nc1nc(=O)n([C@@H]2CS[C@H](CO)O2)cc1F,HELA/CD4 + HELA CD4+,HXB2,,plaque count,EC50,RT-M184I,9.29 µM
COC(=O)N[C@H](C(=O)N[C@@H](Cc1ccccc1)[C@@H](O)CN(Cc1ccc(-c2ccccn2)cc1)NC(=O)[C@@H](NC(=O)OC)C(C)(C)C)C(C)(C)C,MT-2,NL4-3,,,EC50,PR-L10I G48V L90M,0.00095 µM
Nc1ccn([C@H]2CC[C@@H](CO)O2)c(=O)n1,PBMC,Recombinant,,p24,EC50,RT-V75I F77L Q151M,0.12 µM
CCn1nc(Cc2ccc(OCc3ccccc3)cc2)cc1C1CCN(C[C@H]2CN([C@@H](C(=O)O)C(C)(C)C)C[C@@H]2c2cccc(F)c2)CC1,HeLa,BaL,,β-galactosidase,EC50,,<0.0037 µM
Cc1cn([C@H]2C[C@H](N=[N+]=[N-])[C@@H](CO)O2)c(=O)[nH]c1=O,MT-2,LAI,,cytopathic effect / MTT,EC50,,0.9 µM
Fc1ccc2nc3n(c2c1)C(c1c(Cl)cccc1Cl)SC3,MT-4,IIIB,,cytopathic effect / MTT,EC50,,>368 µM
CC(C)CN(C[C@@H](O)[C@H](Cc1ccccc1)NC(=O)[C@H](CC(N)=O)NC(=O)c1ccc2ccccc2n1)C(=O)NC(C)(C)C,MT-2,MN,,RT activity,EC90,,0.273 µM
CCn1nc(Cc2cccc(OC)c2)cc1C1CCN(C[C@H]2CN([C@@H](C(=O)O)C(C)(C)C)C[C@@H]2c2cccc(F)c2)CC1,HeLa,BaL,50% human serum,β-galactosidase,EC50,,<0.033 µM
Nc1nc(=O)n([C@H]2CS[C@@H](CO)O2)cc1F,MT-4,RF,,cytopathic effect / MTT,EC50,,2.1 µM
CCn1nc(Cc2ccc(OC3CCC3)cc2)cc1C1CCN(C[C@H]2CN([C@@H](C(=O)O)C(C)C)C[C@@H]2c2cccc(F)c2)CC1,HeLa,BaL,,β-galactosidase,EC50,,<0.0012 µM
C[C@]1(CCP(=O)(O)O)CO[C@@H](n2cnc3c(=O)[nH]c(N)nc32)C1,PBMC,LAI,,,EC50,,85 µM
CC[C@@H](C)[C@H](C(=O)O)N1C[C@H](CN2CCC(c3cc(Cc4ccc(O)cc4)nn3CC)CC2)[C@@H](c2cccc(F)c2)C1,HeLa,BaL,,β-galactosidase,EC90,,<0.00014 µM
FC(F)(F)c1ccc2c(c1)nc1n2C(c2c(Cl)cccc2Cl)SC1,MT-4,IIIB,,cytopathic effect / MTT,EC50,,>25.9 µM
CC[C@@H](C)[C@H](C(=O)O)N1C[C@H](CN2CCC(c3cc(Cc4ccc(OC(F)F)cc4)nn3CC)CC2)[C@@H](c2cccc(F)c2)C1,HeLa,BaL,,β-galactosidase,EC90,,<0.00014 µM
CCCCN1C(=O)C(CC2CCCCC2)NC(=O)C12CCN(Cc1ccc3c(c1)OCCO3)CC2,PBMC,BaL,,p24,EC90,,0.903 µM

For reference, 3 entries again:

SMILES	cells	strain or isolate	setting	method	measure	mutations	value
FC(F)(F)c1ccc2c(c1)nc1n2C(c2c(Cl)cccc2Cl)SC1	MT-4	IIIB		cytopathic effect / MTT	EC50		>25.9 µM
CCCCN1C(=O)C(CC2CCCCC2)NC(=O)C12CCN(Cc1ccc3c(c1)OCCO3)CC2	PBMC	BaL		p24	EC90		0.903 µM
CCn1nc(Cc2ccc(S(C)(=O)=O)cc2)cc1C1CCN(C[C@H]2CN([C@@H](C(=O)O)C3CCCCC3)C[C@@H]2c2cccc(F)c2)CC1	HeLa	BaL		β-galactosidase	EC50		<0.0004 µM